A mixed list of measured activities; the numbers were collected in NIAID ChemDB.

Shared fields: whole-cell or culture tests; species: HIV-1; measure: EC50

ECn: concentration that inhibits the pathogen or its effect by n%. An empty or dashed field is not shown. Lines come from different laboratories, so protocols vary.

| compound | cell line | changes | strain | method | result |
|---|---|---|---|---|---|
| Cc1ccnc(N2C(=O)CSC2c2c(F)ccc(C)c2Cl)c1 | MT-4 | - | IIIB | cytopathic effect | 0.322 µM |
| CCCOc1nc(N)nc2c1ncn2[C@H]1C=C[C@@H](CO)C1 | MT-2 | - | IIIB | cytopathic effect / XTT | 5.88 µM |
| CCN(C(=O)[C@H](Cc1ccccc1)NC(=O)CNC(=O)c1ccccc1)c1ccccc1 | TZM-gfp | - | NL4-3 | GFP | 2.5 µM |
| CCOC(=O)C[C@H]1[C@@H](O[Si](C)(C)C(C)(C)C)[C@H](n2cnc3c(NC(=O)Nc4ccccc4)ncnc32)O[C@@H]1CNC(=O)NC | MT-2 | - | LAI | cytopathic effect / neutral red | >13 µM |
| CCOC(=O)c1cc(C(=O)c2ccc3ccccc3c2)n2ccc(C(=O)c3ccncc3)cc12 | H9 | - | - | p24 / ELISA | 11 µM |
| Cc1cc(C)nc(N2C(=O)CSC2c2c(F)cccc2F)c1 | MT-4 | - | IIIB | cytopathic effect | 0.09 µM |
| Cc1cn([C@@H]2C=C(F)[C@H](CO)O2)c(=O)[nH]c1=O | PBMC | - | LAI | RT activity | >100 µM |
| COc1cccc(OC)c1C1SCC(=O)N1c1cccc(C)n1 | MT-4 | - | IIIB | cytopathic effect | 1.36 µM |
| CCc1c(C(=O)c2cccc(C#N)c2)n(Cc2cccc(C#N)c2)c(=O)[nH]c1=O | MT-4 | K103N + Y181C | IIIB | MTT | 44 µM |
| COc1cccc(F)c1C1SCC(=O)N1c1cccc(C)n1 | CEM | - | IIIB | syncytia | 0.219 µM |
| Cn1cc(C(=O)O)c(=O)c2cc(F)c(N3CC=C(c4ccccc4)CC3)c(C(F)(F)F)c21 | MT-4 | - | - | cytopathic effect / MTT | 0.2 µM |
| Nc1nc2c(ncn2[C@H]2C=C[C@@H](CO)C2)c(=O)[nH]1 | MT-2 | - | IIIB | cytopathic effect / XTT | 0.45 µM |
| Cc1ccnc(N2C(=O)CSC2c2c(F)ccc(C)c2Cl)n1 | MT-4 | - | IIIB | cytopathic effect | 0.769 µM |
| CCOC(=O)C12CC(=O)N1c1ccccc1S(=O)(=O)n1cccc12 | MT-4 | - | IIIB | MTT | >23 µM |
| C[C@H](Cn1cnc2c(N)ncnc21)OCP(=O)(O)OP(=O)(O)OCCOCn1cnc2c(=O)[nH]c(N)nc21 | Macrophage | - | BaL | - | >1 µM |
| C[C@H](Cn1cnc2c(N)ncnc21)OCP(=O)(O)O | CEM | - | IIIB | syncytia | 1.1 µM |
| CC1=CC[C@@H]([C@@H](C)[C@H]2CC[C@@]3(C)[C@@H]4[C@@H](O)C[C@H]5C(C)(C)OC(=O)C=C[C@@]56C[C@@]46CC[C@]23C)OC1=O | C8166 | - | - | cytopathic effect | 8.79 µg/mL |
| C[C@]1(CO)O[C@@H](n2ccc(=O)[nH]c2=O)[C@H](O)[C@@H]1O | MT-4 | - | IIIB | - | >100 µM |
| Cc1nc(C)c(C(=O)NC(C)(C)CNC(=O)C[C@@]23CC[C@]4(C)[C@H](CC[C@@H]5[C@@]6(C)CC[C@H](OC(=O)[C@H]7C[C@@H](C(=O)O)C7(C)C)C(C)(C)[C@@H]6CC[C@]54C)C2=C(C(C)C)C(=O)C3)s1 | MT-2 | - | 92HT599 | p24 / ELISA | <1 µM |
| O=C(O)CCC1=C(CC(=O)O)c2cc3nc(cc4[nH]c(cc5[nH]c(cc1n2)c(CC(=O)O)c5CCC(=O)O)c(CC(=O)O)c4CCC(=O)O)C(CC(=O)O)=C3CCC(=O)O | MT-2 | - | IIIB | cytopathic effect / XTT | 9.8 µg/mL |
| C=C(C)[C@@H]1C[C@@H](COC(=O)c2ccccc2)[C@@]23OC45OC1(O4)[C@@H]2[C@@H]1O[C@]1(CO)[C@@H](O)[C@@]1(O)[C@H]3[C@H]([C@H](C)[C@@H]1OC(=O)c1ccccc1)[C@H](C)CCCCCC[C@H]5O | MT-4 | - | NL4-3 | p24 / ELISA | 0.00006 µM |
| COc1cccc(F)c1C1SCC(=O)N1c1nccc(C)n1 | MT-4 | - | IIIB | cytopathic effect | 0.532 µM |
| Cc1cn([C@H]2C=C(F)[C@@H](CO)O2)c(=O)[nH]c1=O | PBMC | - | LAI | RT activity | >100 µM |
| [N-]=[N+]=NC[C@H]1O[C@@H](n2cnc3c(NC(=O)Nc4ccccc4)ncnc32)[C@@H]2OC(=O)C[C@@H]21 | MT-2 | - | LAI | cytopathic effect / neutral red | >19 µM |
| CC1=C(CCC(=O)O)c2cc3nc(cc4[nH]c(cc5[nH]c(cc1n2)c(C)c5C(O)CO)c(C)c4C(O)CO)C(C)=C3CCC(=O)O | MT-2 | - | IIIB | cytopathic effect / XTT | 38.2 µg/mL |
| O=C(CC1Nc2ccccc2S(=O)(=O)n2cccc21)Oc1ccc(Cl)cc1 | MT-4 | - | IIIB | MTT | 124 µM |
| O=C(O)c1cn(-c2ccc(Cn3cncn3)cc2)c2c(OC(F)F)c(N3CC=C(c4ccccc4)CC3)c(F)cc2c1=O | OM-10.1 | - | - | p24 | 0.017 µM |
| CC(C)C1=C2[C@H]3CC[C@@H]4[C@@]5(C)CC[C@H](OC(=O)[C@H]6C[C@@H](C(=O)O)C6(C)C)C(C)(C)[C@@H]5CC[C@@]4(C)[C@]3(C)CC[C@@]2(CCNC(=O)c2ccc(CN3CCC(O)CC3)cc2)CC1=O | MT-2 | - | 92HT599 | p24 / ELISA | <1 µM |
| CCOC(=O)c1cc(C(=O)c2ccc3ccccc3c2)n2ccc(C(=O)NCc3ccccn3)cc12 | H9 | - | - | p24 / ELISA | 82 µM |
| O=c1[nH]cnc2c1ncn2[C@H]1C=C(F)[C@@H](CO)O1 | PBMC | - | LAI | RT activity | >100 µM |
| CC(C)C1=C2[C@H]3CC[C@@H]4[C@@]5(C)CC[C@H](OC(=O)[C@H]6C[C@@H](C(=O)O)C6(C)C)C(C)(C)[C@@H]5CC[C@@]4(C)[C@]3(C)CC[C@@]2([C@@H](O)CNC(=O)C(C)(C)NC(=O)CN2CCOCC2)CC1=O | MT-2 | - | 92HT599 | p24 / ELISA | <1 µM |
| CCOC(=O)c1cc(C(=O)c2ccc3ccccc3c2)n2ccc(C(=O)c3ccccc3)cc12 | H9 | - | - | p24 / ELISA | 36.1 µM |
| Nc1nc(N)nc(OC[C@H]2CC[C@@H](COc3nc(N)nc(N)n3)O2)n1 | CEM | - | IIIB | syncytia | >50 µM |
| Nc1nc2c(ncn2C2[C@H](CO)[C@H]2CO)c(=O)[nH]1 | MT-2 | - | - | - | >100 µg/mL |
| CCOCn1c(Cc2ccccc2)c(C(C)C)c(=O)[nH]c1=O | MT-4 | - | IIIB | MTT | 0.03 µM |
| O=C1Nc2ccc(F)cc2[C@@]12C[C@@H]2c1ccccc1 | MT-4 | - | IIIB | MTT | 0.92 µg/mL |
| CCOC(=O)C12CC(=O)N1c1ccccc1N(C)n1cccc12 | MT-4 | - | IIIB | MTT | >369 µM |
| O=c1ccn([C@@H]2C=C(F)[C@H](CO)O2)c(=O)[nH]1 | PBMC | - | LAI | RT activity | >100 µM |
| Nc1nc(N)c2ncn(CC3(CO)C[C@@H]3CO)c2n1 | CEM | - | RF | cytopathic effect / MTT | >100 µg/mL |
| COc1cc([N+](=O)[O-])c(S(=O)(=O)[O-])cc1N=N/C(=N\Nc1cc(S(=O)(=O)[O-])c([N+](=O)[O-])cc1OC)C(=O)Nc1ccccc1 | PBMC | - | 92US657 R5 | p24 | 30.63 µM |
| O=C(O)c1ccc(-c2c3nc(c(-c4ccc(C(=O)O)cc4)c4ccc([nH]4)c(-c4ccc(C(=O)O)cc4)c4nc(c(-c5ccc(C(=O)O)cc5)c5ccc2[nH]5)C=C4)C=C3)cc1 | MT-2 | - | IIIB | cytopathic effect / XTT | 0.37 µg/mL |
| Cc1ccc(N(C)C(=O)[C@H](Cc2ccccc2)NC(=O)CNC(=O)c2ccccc2)cc1 | TZM-gfp | - | NL4-3 | GFP | 1.6 µM |
| CC(C)C1=C2[C@H]3CC[C@@H]4[C@@]5(C)CC[C@H](OC(=O)[C@H]6C[C@@H](C(=O)O)C6(C)C)C(C)(C)[C@@H]5CC[C@@]4(C)[C@]3(C)CC[C@@]2([C@@H](O)CNC(=O)c2ccc(N3CCC(N4CCOCC4)CC3)cc2)CC1=O | MT-2 | - | 92HT599 | p24 / ELISA | <1 µM |
| COc1cccc(F)c1C1SCC(=O)N1c1cc(C)cc(C)n1 | MT-4 | - | IIIB | cytopathic effect | 0.202 µM |
| O=C(CC1Nc2ccccc2S(=O)(=O)n2cccc21)OCc1ccc(Cl)cc1 | MT-4 | - | IIIB | MTT | 24 µM |
| C[C@]1(CO)O[C@@H](n2cc(F)c(=O)[nH]c2=O)[C@H](O)[C@@H]1O | MT-4 | - | IIIB | - | >100 µM |
| CC(C)C1=C2[C@H]3CC[C@@H]4[C@@]5(C)CC[C@H](OC(=O)[C@H]6C[C@@H](C(=O)O)C6(C)C)C(C)(C)[C@@H]5CC[C@@]4(C)[C@]3(C)CC[C@@]2(CC(=O)NCC(C)(C)NC(=O)c2csc(N)n2)CC1=O | MT-2 | - | 92HT599 | p24 / ELISA | <1 µM |
| O=C1CC2c3cccn3S(=O)(=O)c3ccccc3N12 | MT-4 | - | IIIB | MTT | 18 µM |
| Nc1nc(Cl)cc(OC[C@H]2CC[C@@H](COCc3ccccc3)O2)n1 | CEM | - | IIIB | syncytia | >50 µM |
| CC(C)C1=C2[C@H]3CC[C@@H]4[C@@]5(C)CC[C@H](OC(=O)[C@H]6C[C@@H](C(=O)O)C6(C)C)C(C)(C)[C@@H]5CC[C@@]4(C)[C@]3(C)CC[C@@]2([C@@H](O)CNCC2CCCCC2)CC1=O | MT-2 | - | 92HT599 | p24 / ELISA | <1 µM |
| Cc1cccc(N2C(=O)CSC2c2c(C(F)(F)F)ccc(Cl)c2F)n1 | MT-4 | - | IIIB | cytopathic effect | 3.02 µM |
| COC(=O)CC1c2cccn2S(=O)(=O)c2ccccc2N1C(=O)c1ccc(C)cc1 | MT-4 | - | IIIB | MTT | >244 µM |
| Cc1cccc(N2C(=O)CSC2c2c(F)cccc2F)c1 | MT-4 | - | IIIB | cytopathic effect | 0.688 µM |
| CC1CCNC2CCCCC2NC(C)CCNC2CCCCC2N1 | MT-4 | - | IIIB | MTT | 10.51 µM |
| CCOCn1c(C(=O)c2cccc(C#N)c2)c(CC)c(=O)[nH]c1=O | MT-4 | Y181C | IIIB | MTT | 8 µM |
| CCCOc1nc(N)nc2c1ncn2[C@@H]1C=C[C@H](CO)C1 | MT-2 | - | IIIB | cytopathic effect / XTT | 3.08 µM |
| COc1cc(C2(C(F)(F)F)N=N2)ccc1C(=O)NCCOCCOCCNC(=O)c1cc(C(=O)c2ccc3ccccc3c2)n2ccc(C(=O)c3ccccc3)cc12 | H9 | - | - | p24 / ELISA | 14.9 µM |
| Cc1cn([C@H]2C[C@H](N=[N+]=[N-])[C@@H](CO)O2)c(=O)[nH]c1=O | TZM-bl | - | - | - | 0.085 µM |
| Cc1ccnc2c1NC(=O)c1cccnc1N2C1CC1 | MT-4 | - | IIIB | MTT | 0.083 µg/mL |
| Cc1cn(CC(=O)N[C@@H](Cc2ccccc2)C(=O)N(C)c2ccc(Cl)cc2)c(=O)[nH]c1=O | TZM-gfp | - | NL4-3 | XTT | 1.7 µM |
| C[C@H](Cn1cnc2c(N)ncnc21)OCP(=O)(O)O | CEM + CEM-SS | - | IIIB | - | 0.96 µg/mL |
| CCCCOc1nc(N)nc2c1ncn2[C@H]1C=C[C@@H](CO)C1 | MT-2 | - | IIIB | cytopathic effect / XTT | 5.21 µM |
| Nc1cc(OC[C@H]2CC[C@@H](CO)O2)ncn1 | CEM | - | IIIB | syncytia | >250 µM |
| Nc1ccn([C@H]2CC[C@@H](CO)O2)c(=O)n1 | CEM | - | RF | cytopathic effect / MTT | 0.02 µg/mL |